Measurements taken from doi:10.1101/2025.04.14.648818.

The chains behind the UniProt entries cited, without tags or fusion partners. Residues count along the entry.
UniProt P03300, 1566-2209: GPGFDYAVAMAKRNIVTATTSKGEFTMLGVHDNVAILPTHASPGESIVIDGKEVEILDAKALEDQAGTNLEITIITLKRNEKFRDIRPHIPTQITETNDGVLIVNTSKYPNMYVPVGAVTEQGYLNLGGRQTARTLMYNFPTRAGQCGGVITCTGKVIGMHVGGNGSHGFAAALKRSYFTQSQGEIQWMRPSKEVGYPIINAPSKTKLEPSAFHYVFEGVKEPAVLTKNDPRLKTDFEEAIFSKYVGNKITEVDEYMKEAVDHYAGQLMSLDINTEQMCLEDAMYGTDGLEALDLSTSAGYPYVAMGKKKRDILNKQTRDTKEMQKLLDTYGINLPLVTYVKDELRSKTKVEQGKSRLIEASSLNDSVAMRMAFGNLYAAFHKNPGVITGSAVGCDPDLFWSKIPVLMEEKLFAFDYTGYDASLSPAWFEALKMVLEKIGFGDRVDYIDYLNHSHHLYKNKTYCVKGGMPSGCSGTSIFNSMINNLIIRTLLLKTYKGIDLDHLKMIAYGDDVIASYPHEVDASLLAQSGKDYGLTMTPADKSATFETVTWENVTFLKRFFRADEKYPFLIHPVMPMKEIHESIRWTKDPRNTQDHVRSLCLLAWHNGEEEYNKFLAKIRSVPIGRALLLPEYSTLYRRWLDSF

These sequences were tested against PV-3CD (Poliovirus) (UniProt P03300) (assay: negative-stain EM). Conditions: oligomers ~20-40 nm, indirect read-out.
GGCGGCGUACUCCGG [RNA-1]: binds.

The sequences below were run against PV-3CD (Poliovirus) (UniProt P03300) (assay: DIC microscopy). Conditions: indirect read-out.
AAAAAAAAAAAAAAA [RNA-6 (A15)]: binds.
ACCCCAGAGGCCCAC [RNA-4]: binds.
AGUUCAAGAGC [RNA-15]: binds.
CAGAGGAACACGUGGCGGCG [RNA-13]: binds.
CCAUCAAGAAUCCUA [RNA-5]: binds.
CGCAGCAAACACAAG [RNA-7]: binds.
CGUUGGCUUGACUCA [RNA-9]: binds.
CUACCUCAGUCGAAU [RNA-8]: binds.
CUCCGGUAUUGCGGUACCCUUG [RNA-11]: binds.
GAUUGGGUCAUACUGUUGUAG [RNA-12]: binds.
GGGGUUGUACCCACCCC [RNA-10]: binds.
UUUUCUUUAAUUCGGAGAAAA [RNA-14]: binds.
UUUUUUUUUUUUUUU [RNA-3 (U15)]: binds.

The exact form of at least one protein or probe is not confirmed. At least one verdict was read from the data and is not stated in words by the source.
